Results of unrelated studies side by side (data: NIAID ChemDB).

Common to all: tests in culture; species: Mycobacterium avium complex; measure: MIC

Neighbouring rows are from separate reports.

smiles	strain or isolate	value
CC[C@@]1(O)OC(=O)[C@H](C)[C@@H](O[C@H]2C[C@@](C)(OC)[C@@H](O)[C@H](C)O2)[C@H](C)[C@@H](O[C@@H]2O[C@H](C)C[C@H](N(C)C)[C@H]2O)[C@](C)(OC)C[C@@H](C)C(=O)[C@H](C)[C@@H](O)[C@]1(C)O	MO-1	8 µg/mL
CC(C)N=C(N)/N=C(\N)NOCCCOc1cc(Cl)c(Cl)cc1Cl	GRE	32 µg/mL
Cc1c(CNc2ccc3ccc4cccc5ccc2c3c45)cnc2nc(N)nc(N)c12	NJ3404	≤0.13 µg/mL
CCCCCCCCO[C@@H]1O[C@@H](C(CO[C@@H]2O[C@@H](C(O)CO)[C@H](O)[C@H]2O)OC)[C@H](OC)[C@H]1OC	NJ168	>128 µg/mL
CCNC(=O)O[C@H]1C(O[C@@H]2[C@@H](C)[C@H](O[C@H]3C[C@@](C)(OC)[C@@H](OC(C)=O)[C@H](C)O3)[C@@H](C)C(=O)O[C@H](CC)[C@@](C)(O)[C@H](O)[C@@H](C)/C(=N/OCCCC3CCCCC3)[C@H](C)CC2(C)O)O[C@H](C)C[C@@H]1N(C)C	20045	12.5 µg/mL
CC[C@H]1OC(=O)[C@H](C)[C@@H](O[C@H]2C[C@@](C)(OC)[C@@H](OC(C)=O)[C@H](C)O2)[C@H](C)[C@@H](O[C@@H]2O[C@H](C)C[C@H](N(C)C)[C@H]2OC(=O)NNCc2ccncc2)C(C)(O)C[C@@H](C)/C(=N\OCCCC2CCCCC2)[C@H](C)[C@@H](O)[C@]1(C)O	20039 (clarithromycin-susceptible)	0.78 µg/mL
NCC[C@H](O)C(=O)N[C@@H]1C[C@H](N)[C@@H](O[C@H]2O[C@H](CN)[C@@H](O)[C@H](O)[C@H]2O)[C@H](O)[C@H]1O[C@H]1O[C@H](CO)[C@@H](O)[C@H](N)[C@H]1O	900	1 µg/mL
COc1ccc(C(F)(F)F)cc1N(C)Cc1cnc2nc(N)nc(N)c2c1C	NJ211	≤0.13 µg/mL
CO[C@H]1/C=C/O[C@@]2(C)Oc3c(C)c(O)c4c(=O)c(c5oc6cc(N7CCN(CC(C)C)CC7)cc(=O)c6nc5c4c3=C2O)NC(=O)/C(C)=C\C=C\[C@H](C)[C@H](O)[C@@H](C)[C@@H](O)[C@@H](C)[C@H](OC(C)=O)[C@@H]1C	N-444	0.025 µg/mL
CO[C@H]1/C=C/O[C@@]2(C)Oc3c(C)c(O)c4c(O)c(c5c(c4c3C2=O)NC2(CCN(CC(C)C)CC2)N=5)=NC(=O)/C(C)=C\C=C\[C@H](C)[C@H](O)[C@@H](C)[C@@H](O)[C@@H](C)[C@H](OC(C)=O)[C@@H]1C	3009-4	1 µg/mL
CCCC(=O)O[C@H]1[C@H](C)OC(O[C@H]2[C@H](C)[C@@H](O[C@@H]3O[C@H](C)C[C@H](N(C)C)[C@H]3O)C(C)(O)C[C@@H](C)/C(=N\OCCCOc3ccccc3)[C@H](C)[C@@H](O)[C@](C)(O)[C@@H](CC)OC(=O)[C@@H]2C)C[C@@]1(C)OC	20096 (clarithromycin-resistant)	0.78 µg/mL
COc1ccc(C2OC(c3ccncc3)=NN2C)cc1OC	12592 PI	>20 µg/mL
Nc1ccc(S(=O)(=O)c2ccc(N)cc2)cc1	DW28	>64 µg/mL
CCCNC(=O)OCCn1sc2ccccc2c1=O	ISS 486	16 µg/mL
CCCCCCCCO[C@H]1OC([C@@H](COC)O[C@H]2O[C@H]([C@@H](O)CO)[C@@H](O)[C@@H]2O)[C@@H](OC)[C@@H]1OC	NJ3404	>12.8 µg/mL
Cc1cc(C)nc(NS(=O)(=O)c2ccc(N)cc2)n1	FAR	16 µg/mL
CC[C@H]1OC(=O)[C@H](C)[C@@H](O[C@H]2C[C@@](C)(OC)[C@@H](OC(C)=O)[C@H](C)O2)[C@H](C)[C@@H](O[C@@H]2O[C@H](C)C[C@H](N(C)C)[C@H]2O)C(C)(O)C[C@@H](C)/C(=N\OCCCC2CCCCC2)[C@H](C)[C@@H](O)[C@]1(C)O	20039	3.13 µg/mL
CN1N=C(c2ccncc2)OC1c1ccc(Cl)c(Cl)c1	12592 PI	>20 µg/mL
O[C@H](c1cc2ccc(C(F)(F)F)cc2c2cc(C(F)(F)F)ccc12)[C@H]1CCCCN1	5 clinical isolates	2 µg/mL
CC[C@H]1OC(=O)[C@H](C)[C@@H](O[C@H]2C[C@@](C)(OC)[C@@H](OC(C)=O)[C@H](C)O2)[C@H](C)[C@@H](O[C@@H]2O[C@H](C)C[C@H](N(C)C)[C@H]2OC(=O)NNCc2ccccn2)C(C)(O)C[C@@H](C)/C(=N\OCCCC2CCCCC2)[C@H](C)[C@@H](O)[C@]1(C)O	20096 (clarithromycin-resistant)	0.78 µg/mL
OCCn1sc2ccccc2c1=S	AN2	8 µg/mL
Nc1ccc(S(=O)(=O)c2ccc(N)cc2)cc1	101	16 µg/mL
CC[C@H]1OC(=O)[C@H](C)[C@@H](O[C@H]2C[C@@](C)(OC)[C@@H](O)[C@H](C)O2)[C@H](C)[C@@H](O[C@@H]2O[C@H](C)C[C@H](N(C)C)[C@H]2O)[C@](C)(OC)C[C@@H](C)C(=O)[C@H](C)[C@@H](O)[C@]1(C)O	LV-2	2 µg/mL
CCCOc1ccc(OCC)cc1NCc1cnc2nc(N)nc(N)c2c1C	NJ3404	0.25 µg/mL
CCCCCCCCO[C@@H]1O[C@@H](C(COCc2ccccc2)O[C@@H]2O[C@@H](C(COC(C)=O)OC(C)=O)[C@H](OC(C)=O)[C@H]2OC(C)=O)[C@H](OCc2ccccc2)[C@H]1OCc1ccccc1	NJ211	>128 µg/mL
CN1N=C(c2ccncc2)OC1c1ccccc1	12592 PI	>20 µg/mL
CCCCNC(=O)O[C@H]1C(O[C@@H]2[C@@H](C)[C@H](O[C@H]3C[C@@](C)(OC)[C@@H](OC(C)=O)[C@H](C)O3)[C@@H](C)C(=O)O[C@H](CC)[C@@](C)(O)[C@H](O)[C@@H](C)/C(=N/OCCCC3CCCCC3)[C@H](C)CC2(C)O)O[C@H](C)C[C@@H]1N(C)C	20096	0.1 µg/mL
CO[C@H]1/C=C/O[C@@]2(C)Oc3c(C)c(O)c4c(O)c(c(/C=N/N5CCN(C6CCCC6)CC5)c(O)c4c3C2=O)NC(=O)/C(C)=C\C=C\[C@H](C)[C@H](O)[C@@H](C)[C@@H](O)[C@@H](C)[C@H](OC(C)=O)[C@@H]1C	101	0.25 µg/mL
CN[C@@H]1[C@@H](O)C(O[C@@H]2[C@@H](O)[C@H](OC3O[C@H](CN)[C@@H](O)[C@H](O)[C@H]3O)[C@@H](N)C[C@H]2NC(=O)[C@@H](O)CN)OC[C@]1(C)O	T24	25 µg/mL
CCCCCCCCCCC(=O)O[C@H]1[C@H](C)OC(O[C@H]2[C@H](C)[C@@H](O[C@@H]3O[C@H](C)C[C@H](N(C)C)[C@H]3O)C(C)(O)C[C@@H](C)/C(=N\OCCCOc3ccccc3)[C@H](C)[C@@H](O)[C@](C)(O)[C@@H](CC)OC(=O)[C@@H]2C)C[C@@]1(C)OC	20092 (clarithromycin-resistant)	>50 µg/mL
CCCCCCCCO[C@@H]1O[C@@H](C(CO[C@@H]2O[C@@H](C(COC(C)=O)OC(C)=O)[C@H](OC(C)=O)[C@H]2OC(C)=O)OC)[C@H](OC)[C@H]1OC	NJ211	>128 µg/mL
CC1(C)N=C(N)N=C(N)N1OCCCOc1cc(Cl)c(Cl)cc1Cl	DW25	2 µg/mL
COc1ccc(C(F)(F)F)cc1NCc1cnc2nc(N)nc(N)c2c1C	NJ3404	≤0.13 µg/mL
CN1N=C(c2ccncc2)OC1c1ccccc1F	12592 PI	>20 µg/mL
CC(C)(C)NC(=O)OCCn1sc2ccccc2c1=O	ISS 486	>32 µg/mL
COc1cc(NCc2cnc3nc(N)nc(N)c3c2C)cc(C(F)(F)F)c1	NJ3404	≤0.13 µg/mL
COc1ccc2nccc(/C=C\C3CCCCC3)c2c1	5 clinical isolates	16 µg/mL
CC/C=C/CCNC(=O)O[C@H]1C(O[C@@H]2[C@@H](C)[C@H](O[C@H]3C[C@@](C)(OC)[C@@H](OC(C)=O)[C@H](C)O3)[C@@H](C)C(=O)O[C@H](CC)[C@@](C)(O)[C@H](O)[C@@H](C)/C(=N/OCCCC3CCCCC3)[C@H](C)CC2(C)O)O[C@H](C)C[C@@H]1N(C)C	20092	0.1 µg/mL
CCCNC(=O)OCCn1sc2ccccc2c1=S	ISS 486	4 µg/mL
CCCCCCCN(CCCCCCC)C[C@@H](O)c1cc2ccccc2c2cc(Br)ccc12	5 clinical isolates	>32 µg/mL
CCCNC(=O)OCCN=c1ssc2ccccc12	ISS 486	4 µg/mL
CO[C@H]1/C=C/O[C@@]2(C)Oc3c(C)c(O)c4c(O)c(c(/C=N/N5CCN(C6CCCC6)CC5)c(O)c4c3C2=O)NC(=O)/C(C)=C\C=C\[C@H](C)[C@H](O)[C@@H](C)[C@@H](O)[C@@H](C)[C@H](OC(C)=O)[C@@H]1C	SK095	0.25 µg/mL
CCCCCCCCNC(=O)O[C@H]1C(O[C@@H]2[C@@H](C)[C@H](O[C@H]3C[C@@](C)(OC)[C@@H](OC(C)=O)[C@H](C)O3)[C@@H](C)C(=O)O[C@H](CC)[C@@](C)(O)[C@H](O)[C@@H](C)/C(=N/OCCCC3CCCCC3)[C@H](C)CC2(C)O)O[C@H](C)C[C@@H]1N(C)C	20092	0.2 µg/mL
CO[C@H]1/C=C/O[C@@]2(C)Oc3c(C)c(O)c4c(O)c(c5c(c4c3C2=O)NC2(CCN(CC(C)C)CC2)N=5)=NC(=O)/C(C)=C\C=C\[C@H](C)[C@H](O)[C@@H](C)[C@@H](O)[C@@H](C)[C@H](OC(C)=O)[C@@H]1C	LA-1	2 µg/mL
Cc1c(CNc2ccc3ccccc3c2)cnc2nc(N)nc(N)c12	NJ168	≤0.13 µg/mL
CC[C@H]1OC(=O)[C@H](C)[C@@H](O[C@H]2C[C@@](C)(OC)[C@@H](O)[C@H](C)O2)[C@H](C)[C@@H](O[C@@H]2O[C@H](C)C[C@H](N(C)C)[C@H]2O)[C@](C)(O)C[C@@H](C)CN(C)[C@H](C)[C@@H](O)[C@]1(C)O	ATCC49601	8 µg/mL
COc1cc(NC(C)CCCN)c2nccc(COc3cccc(C(F)(F)F)c3)c2c1Cc1cccc(C(F)(F)F)c1	5 clinical isolates	>16 µg/mL
CC[C@H]1OC(=O)[C@H](C)[C@@H](O[C@H]2C[C@@](C)(OC)[C@@H](OC(C)=O)[C@H](C)O2)[C@H](C)[C@@H](OC2O[C@H](C)C[C@H](N(C)C)[C@H]2OC(=O)NCCCCCCCCCCCCCCN(C)C)C(C)(O)C[C@@H](C)/C(=N\OCCCC2CCCCC2)[C@H](C)[C@@H](O)[C@]1(C)O	20092	0.78 µg/mL

The last 3 rows once more:

smiles | strain or isolate | value
CC[C@H]1OC(=O)[C@H](C)[C@@H](O[C@H]2C[C@@](C)(OC)[C@@H](O)[C@H](C)O2)[C@H](C)[C@@H](O[C@@H]2O[C@H](C)C[C@H](N(C)C)[C@H]2O)[C@](C)(O)C[C@@H](C)CN(C)[C@H](C)[C@@H](O)[C@]1(C)O | ATCC49601 | 8 µg/mL
COc1cc(NC(C)CCCN)c2nccc(COc3cccc(C(F)(F)F)c3)c2c1Cc1cccc(C(F)(F)F)c1 | 5 clinical isolates | >16 µg/mL
CC[C@H]1OC(=O)[C@H](C)[C@@H](O[C@H]2C[C@@](C)(OC)[C@@H](OC(C)=O)[C@H](C)O2)[C@H](C)[C@@H](OC2O[C@H](C)C[C@H](N(C)C)[C@H]2OC(=O)NCCCCCCCCCCCCCCN(C)C)C(C)(O)C[C@@H](C)/C(=N\OCCCC2CCCCC2)[C@H](C)[C@@H](O)[C@]1(C)O | 20092 | 0.78 µg/mL